Consider one molecule from patent publication EP0597838B1, “VACCINE COMPOSITIONS” (NORTH AMERICAN VACCINE, INC., priority 1990, dated 1991).

Structures can show the parent of a compound that is named as a salt.

The test system of the series is hepatitis B surface antigen. Put plainly: Adsorption (complexation) of antigen to the immunoadjuvant.

`CCCCCCCCCCCCCCCCCCOC(=O)C(N)Cc1ccc(O)cc1` (stereo not drawn) [Octadecyl Tyrosine, octadecyl tyrosine hydrochloride]: the “% Adsorbed Antigen” value runs as follows: (10 µg octadecyl tyrosine) 53%; (50 µg octadecyl tyrosine) 60%; (100 µg octadecyl tyrosine) 70%.
